Measured values from several laboratories, pooled; numbers as filed in NIAID ChemDB.

All rows: growth or infection tests; species: Mycobacterium tuberculosis

MIC bound: limit read from a one-dose screen. Inhibition is in % at the dose shown (toxicity tests: loss of growth or viability). ECn is the concentration giving n% inhibition of infection, replication or growth. MIC50, MIC90 and the like: level of inhibition, or share of isolates inhibited. Lines come from different laboratories, so protocols vary. Blank or dashed fields: not listed here. a–b is a range or a potency band.

smiles	read by	endpoint	strain	cells	setting	dose	result
CC(C)OC(=S)Nc1ccc(Cl)c(/C=N/OC(C)(C)C)c1	BACTEC	inhibition	H37Rv	-	-	12.5 µg/mL	99%
Cc1csc(NC(=O)c2cncc(Cl)n2)n1	-	inhibition	H37Rv	-	-	6.25 µg/mL	21%
CN(C)C(=O)c1ccc(SC(=S)NCc2ccccc2)cc1	BACTEC	MIC bound	H37Rv	-	-	-	≤128 µg/mL
COc1cc(OC)c2c(=O)c3cc(OC)c(OC)cc3oc2c1	-	MIC	-	-	-	-	100 µg/mL
Cc1ccc(-c2nc3sc(S(N)(=O)=O)nn3c2SC#N)cc1	-	inhibition	H37Rv	-	-	6.25 µg/mL	29%
Oc1c(N=NC(=S)NCc2ccccc2)c2cc(OC(F)(F)F)ccc2n1CN1CCOCC1	broth dilution / resazurin	EC50	H37Rv	-	-	-	1.001 µg/mL
O=C(NNC(=O)c1ccncc1)Nc1ccc(C(F)(F)F)cc1	broth dilution	MIC100	My 331/88	-	21 d	-	62.5 µM
Cc1ccc(C)c(/C=N/N=C(\N)c2ccncc2)c1	-	MIC	H37Rv	-	-	-	256 µg/mL
Cc1csc(NC(=O)c2cnc(C(C)(C)C)c(Cl)n2)n1	-	inhibition	H37Rv	-	-	6.25 µg/mL	52%
N/C(=N\N=C\c1cccc(F)c1)c1ccncc1	-	MIC	1481	-	-	-	64 µg/mL
Clc1ccccc1CNCC1CCCC(CNCc2ccccc2Cl)C1	-	inhibition	H37Rv	-	-	20 µM	0%
O=C(Nc1nccs1)c1cnccn1	-	inhibition	H37Rv	-	-	6.25 µg/mL	0%
Cc1nc2cc[nH]n2c(=O)c1CCc1ccccc1	resazurin	MIC bound	H37Rv	-	-	-	>6.25 µg/mL
CN(CC(=O)O)c1ccc2c(=O)n3c(nc2c1)C(=O)c1cc(Cl)ccc1-3	-	MIC	H37Rv	-	-	-	1 µg/mL
Cc1ccc2[nH]c(O)c(N=NC(=S)NCc3ccccc3)c2c1	broth dilution / resazurin	EC50	H37Rv	-	-	-	14.9 µg/mL
CCC(CCCN)Nc1cc(OC)cc2cccnc12	BACTEC	MIC bound	H37Rv	-	-	-	>12.5 µg/mL
Clc1nc(-c2cccs2)c2ncn(Cc3ccccc3)c2n1	-	EC50	H37Rv	VERO	-	-	<6.25 µg/mL
NC(=[SH+])[N-]/N=C/c1nccc2ccccc12.[Cl][Cu]	BACTEC	MIC	H37Rv	-	-	-	12.5 µg/mL
COc1ccc(/C=C/C(=O)c2ccc(O)c(C)c2)cc1	-	MIC	H37Rv	-	-	-	>6.25 µg/mL
O=c1cc2oc3cc(O)c(O)cc3c(-c3ccccc3O)c-2cc1O	broth dilution	MIC90	H37Rv	-	-	-	133 µg/mL
Cc1cc(Cl)cc2c1-n1c(nc3ccccc3c1=O)C2=O	-	MIC	H37Rv	-	-	-	0.06 µg/mL
NC[C@H]1O[C@H](O[C@H]2[C@H](O)[C@@H](O[C@H]3O[C@H](CO)[C@@H](O)[C@H](N)[C@H]3O)[C@H](N)C[C@@H]2N)[C@H](O)[C@@H](O)[C@@H]1O	-	MIC	H37Ra	-	-	-	2–5 µg/mL
COc1c(N2CCNC(C)C2)c(F)cc2c(=O)c(C(=O)O)cn(C3CC3)c12	-	MIC	Z178	-	-	-	0.5 µg/mL
Fc1ccc(-c2cn3nc(C(F)(F)F)sc3n2)cc1	-	MIC	H37Rv	-	-	-	50 µg/mL
Cc1ccc2c(c1)c(N=NC(=S)Nc1ccc([N+](=O)[O-])cc1)c(O)n2C	broth dilution / resazurin	EC50	H37Rv	-	-	-	>100 µg/mL
Cc1cc(C(=O)/C=C/c2ccccc2Cl)ccc1O	-	MIC	H37Rv	-	-	-	>6.25 µg/mL
COc1ccc2c3c1OC1C=CC(OC(C)=O)C4C(C2)N(C)CCC314	BACTEC	MIC bound	H37Rv	-	-	-	>12.5 µg/mL
C=CCn1cnc2c(-c3ccco3)ncnc21	-	EC50	H37Rv	-	-	-	>6.25 µg/mL
CCCCC1CCCCCCc2[nH]c(/C=C3\N=C(c4ccc[nH]4)C=C3OC)cc21.Cl	BACTEC	MIC	H37Rv	-	-	-	≥12.5 µg/mL
CC(=O)O[C@H]1CC[C@]2(C)[C@H]3CC=C4C5[C@@H](C)[C@H](C)CC[C@]5(C)CC[C@@]4(C)[C@]3(C)CC[C@H]2C1(C)C	resazurin	MIC90	H37Rv (ATCC 27294)	-	-	-	62.5 µg/mL
NC(=O)CCSC(=S)N1CCOCC1	BACTEC	MIC	H37Rv	-	-	-	≥128 µg/mL
Clc1ccc(Nc2nnc(-c3ccncc3)o2)cc1Cl	broth dilution	MIC100	My 331/88	-	21 d	-	>125 µM
Cc1cc(C(c2cc(C)c(O)c(C(=O)O)c2)c2cc(C)c(O)c(C(=O)O)c2)cc(C(=O)O)c1O	BACTEC	MIC bound	H37Rv	-	-	-	>12.5 µg/mL
NC(=O)c1c(NC(=O)C2CC2)sc2cc(O)c(Br)cc12	resazurin / absorbance	MIC	H37Rv	-	-	-	>100 µM
CC1=NN(C(=O)c2ccncc2)C(=O)C1N=Nc1ccc(S(=O)(=O)Nc2ccccn2)cc1	BACTEC	MIC	H37Rv	-	-	-	≥12.8 µg/mL
FC(F)(F)c1ccccc1CNCC1CCCC(CNCc2ccccc2C(F)(F)F)C1	-	inhibition	H37Rv	-	-	20 µM	0%
Cn1cnc2c(-c3ccco3)ncnc21	-	EC50	H37Rv	-	-	-	>6.25 µg/mL
COc1cc(NC(=O)c2cnc(C(C)(C)C)cn2)cc(OC)c1	-	inhibition	H37Rv	-	-	6.25 µg/mL	5%
COc1ccc(/C=N/NC(=S)Nc2ccc(F)c(Cl)c2)cc1	-	MIC	H37Rv	-	-	-	2.4 µg/mL
CCn1cc(C(=O)O)c(=O)c2cc(F)c(N3CCN(C)CC3)cc21	-	MIC50	21 strains	-	-	-	4 µg/mL
CCCCCCCCc1ccc(NC(=O)NNC(=O)c2ccncc2)cc1	broth dilution	MIC100	My 331/88	-	21 d	-	2 µM
Fc1ccccc1CNCC1CCCC(CNCc2ccccc2F)C1	-	inhibition	H37Rv	-	-	20 µM	0%
Cc1ccc(NCC(=O)NN)cc1F	BACTEC	inhibition	H37Rv	-	-	12.5 µg/mL	16%
CS(=O)(=O)c1ccc2c(c1)C(=O)c1nc3ccncc3c(=O)n1-2	-	MIC	H37Rv	-	-	-	4 µg/mL
NS(=O)(=O)c1nn2cc(-c3ccc(F)cc3)nc2s1	-	MIC	H37Rv	-	-	-	50 µg/mL
Fc1ccc(NC(=S)N/N=C/c2ccccc2)cc1Cl	-	MIC	H37Rv	-	-	-	2 µg/mL
CC(C)C[C@@H]1NC(=O)[C@H](Cc2c[nH]c3ccccc23)NC(=O)[C@@H](CCCN)NC(=O)[C@H](CC(=O)NCC2CCCCC2)NC(=O)[C@H](C(C)C)NC(=O)[C@@H](CC(C)C)NC1=O	resazurin	MIC	H37Rv	-	-	-	10 µM
COc1cc(O)c2c(=O)c3cc(O)c(O)c(OC)c3oc2c1	-	MIC	-	-	-	-	40 µg/mL
O=c1oc2ccccc2cc1-c1cn2nc(C(F)(F)F)sc2n1	-	MIC	H37Rv	-	-	-	40 µg/mL
O=C1C2=C(Nc3cc([N+](=O)[O-])ccc3N2)OC1c1c[nH]c2ccc(COc3ccccc3)cc12	BACTEC	MIC bound	H37Rv	-	-	-	>12.5 µg/mL
CC(C)(C)c1ncc(C(=O)Nc2cc(Br)ccc2O)nc1Cl	-	inhibition	H37Rv	-	-	6.25 µg/mL	30%
Cc1ccc(NC(=S)N=Nc2c(O)n(C)c3ccc(OC(F)(F)F)cc23)cc1	broth dilution / resazurin	EC50	H37Rv	-	-	-	66.4 µg/mL
C[C@H]1c2ccoc2C[C@H]2[C@H]1[C@@H](O)[C@@H](OC(=O)c1ccccc1)[C@@]1(O)C(C)(C)CCC[C@]21C	-	MIC	H37Ra	-	-	-	25 µg/mL
O=C1c2cc(I)ccc2-n2c1nc1ncccc1c2=O	-	MIC	TN2050RFLF:CO (MDR)	-	-	-	0.06 µg/mL
CCN(CC)C(=S)[S][Sn]([S]C(=S)N(CC)CC)([c]1ccccc1)[c]1ccccc1	-	MIC	RMP-R	-	-	-	3.2 µg/mL
COc1ccc(NC(=O)NNC(=O)c2ccncc2)cc1	broth dilution	MIC100	My 331/88	-	14 d	-	62.5 µM
CC(C)(C)c1cnc(C(=O)Nc2cc(Br)ccc2O)cn1	-	inhibition	H37Rv	-	-	6.25 µg/mL	0%
Cn1c(O)c(N=NC(=S)Nc2ccc(Cl)cc2)c2cc(OC(F)(F)F)ccc21	broth dilution / resazurin	EC50	H37Rv	-	-	-	1.706 µg/mL
N/C(=N\N=C\c1ccccc1Br)c1ccncc1	-	MIC	1054	-	-	-	8 µg/mL
O=C1c2cc(Cl)ccc2-n2c1nc1ccncc1c2=O	-	MIC	H37Rv	-	-	-	0.03 µg/mL
O=[N+]([O-])c1ccc(-c2cn3nc(C(F)(F)F)sc3n2)cc1	-	MIC	H37Rv	-	-	-	>6.25 µg/mL
Cc1ccc(/C=N/N=C(\N)c2ccncc2)c(C)c1	-	MIC	H37Rv	-	-	-	8 µg/mL
CCOc1cc(/C=N/N=c2\scc(-c3cc4cc(Br)ccc4oc3=O)n2C2CCCCC2)ccc1O	-	EC50	H37Rv	-	-	-	<12.5 µg/mL
CC1NC(C(=O)O)Cc2cc(O)c(O)cc21	BACTEC	MIC bound	H37Rv	-	-	-	>12.8 µg/mL
COc1cc(/C=C/C(=O)c2ccc(O)c(C)c2)cc(OC)c1OC	-	inhibition	H37Rv	-	-	6.25 µg/mL	77%
N/C(=N\N=C\c1ccc([N+](=O)[O-])cc1)c1ccncc1	-	MIC	H37Rv	-	-	-	256 µg/mL
COC12OCCN(C)C1=CC(=O)C1=NNC(C)C12	BACTEC	MIC	H37Rv	-	-	-	≥12.5 µg/mL
O=[N+]([O-])c1ccccc1CNCC1CCCC(CNCc2ccccc2[N+](=O)[O-])C1	-	inhibition	H37Rv	-	-	20 µM	0%
COc1cc(/C=N/N=C(\N)c2ccncc2)cc(OC)c1OC	-	MIC	1054	-	-	-	>256 µg/mL
CC1=CC2(C)C3C=C(C)C(C2C(=O)C1=O)C(C)(O)C3=O	-	MIC bound	H37Rv	-	-	-	>6.25 µg/mL
O=c1oc2ccccc2cc1-c1cs/c(=N\N=C\c2cc(Br)ccc2O)n1-c1ccccc1	-	MIC	H37Rv	-	-	-	>12.5 µg/mL
O=c1c2c(O)cc(O)cc2oc2cc(O)c(O)c(O)c12	-	MIC	-	-	-	-	5 µg/mL
C=CCNC(=S)N=Nc1c(O)n(C)c2ccc(C)cc12	broth dilution / resazurin	EC50	H37Rv	-	-	-	>100 µg/mL
O=C1c2ccccc2-n2c1nc1c(Br)cc(Br)c(F)c1c2=O	-	MIC	H37Rv	-	-	-	2 µg/mL
CCCCNC(=S)N=Nc1c(O)n(CN2CCOCC2)c2ccc(OC(F)(F)F)cc12	broth dilution / resazurin	EC50	H37Rv	-	-	-	12.3 µg/mL
CCCCCc1ccc(NC(=O)NNC(=O)c2ccncc2)cc1	broth dilution	MIC100	My 331/88	-	21 d	-	62.5 µM
FC(F)(F)c1nn2cc(-c3ccc(Cl)cc3)nc2s1	-	MIC	H37Rv	-	-	-	40 µg/mL
CCCCCCCCNS(=O)(=O)c1ccc2c(c1)C(=O)c1nc3ncccc3c(=O)n1-2	-	MIC	H37Rv	-	-	-	8 µg/mL
COc1ccc(C2CC(=O)NC2=O)cc1OC	BACTEC	inhibition	H37Rv	-	-	12.5 µg/mL	8%
CN(CCO)c1ccc2c(=O)n3c(nc2c1)C(=O)c1cc(Cl)ccc1-3	-	MIC	H37Rv	-	-	-	0.13 µg/mL
CC(C)c1ccc(NC(=O)NNC(=O)c2ccncc2)cc1	broth dilution	MIC100	My 331/88	-	21 d	-	32 µM
c1ccc(CCn2cnc3c(-c4ccco4)ncnc32)cc1	-	EC50	H37Rv	-	-	-	>6.25 µg/mL
COc1cc(O)c2c(=O)c3cccc(O)c3oc2c1	-	MIC	-	-	-	-	>200 µg/mL
CC(=O)NNc1nc(C)c(C(=O)NNC(=O)C(=O)Nc2nc3ccc([N+](=O)[O-])cc3s2)s1	BACTEC	MIC bound	H37Rv	-	-	-	>12.5 µg/mL
CCCCn1c(-c2cc3cc(Br)ccc3oc2=O)cs/c1=N\N=C\c1ccc(Cl)cc1	-	EC50	H37Rv	-	-	-	<12.5 µg/mL
Cc1nnc2n1N=C(c1ccccc1)C(c1ccccc1)S2	BACTEC	MIC bound	H37Rv	-	-	-	≤12.5 µg/mL
N/C(=N\N=C\c1ccc(Cl)c(Cl)c1)c1ccncc1	-	MIC	1342	-	-	-	>256 µg/mL
CC(=O)NNc1nc(C)c(C(C=Cc2ccc(Cl)cc2)=NN=C(N)N)s1	resazurin	MIC bound	H37Rv	-	-	-	>6.25 µg/mL
CCOc1cc(/C=N/N=c2\scc(-c3cc4cc(Br)ccc4oc3=O)n2CC)ccc1O	-	MIC	H37Rv	-	-	-	>12.5 µg/mL

The last 5 rows once more:

smiles	read by	endpoint	strain	cells	setting	dose	result
CCCCn1c(-c2cc3cc(Br)ccc3oc2=O)cs/c1=N\N=C\c1ccc(Cl)cc1	-	EC50	H37Rv	-	-	-	<12.5 µg/mL
Cc1nnc2n1N=C(c1ccccc1)C(c1ccccc1)S2	BACTEC	MIC bound	H37Rv	-	-	-	≤12.5 µg/mL
N/C(=N\N=C\c1ccc(Cl)c(Cl)c1)c1ccncc1	-	MIC	1342	-	-	-	>256 µg/mL
CC(=O)NNc1nc(C)c(C(C=Cc2ccc(Cl)cc2)=NN=C(N)N)s1	resazurin	MIC bound	H37Rv	-	-	-	>6.25 µg/mL
CCOc1cc(/C=N/N=c2\scc(-c3cc4cc(Br)ccc4oc3=O)n2CC)ccc1O	-	MIC	H37Rv	-	-	-	>12.5 µg/mL